Assay: general procedure: Fmoc solid-phase peptide synthesis; Rink amide resin LS (100–200 mesh, 0.43 mmol/g); HATU
Conditions: whole synthesis, scale of the general procedure 50–100 mg scale of the general procedure, bicyclic, sequence written open

## TMA-Tyr-Pip-glu-Asp-nal-Gly-leu-Dap-4-ClPhe-nal-arg-Arg-arg-Arg-Dap
  outcome: The synthesis of peptide B7-131-6 failed
